Values from PubChem BioAssay AID1259414 (Drosophila RNAi Screening Center, 2018)

- Test: 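Fly genes that alter Wolbachia amount inside host cells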 (primary screen)
- Cell system: Drosophila JW18 cells infected with Wolbachia
- Reagent: long dsRNA against Drosophila genes, 0.25 µg dsRNA per well of a 384-well plate
- Time to read-out: 5 days
- Challenge: cells persistently infected with Wolbachia before knock-down; no added drug
- Measurement: 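Imaged fluorescence in situ signal for Wolbachia 23S rRNA per DAPI-counted host cell, given as a robust z-score within each plate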
- Scale: Wolbachia per cell robust z: higher = more Wolbachia per host cell than the plate typical
- Rule for the call: 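Active if absolute robust z reaches 1.5 in two or more of three replicates, leaving out multi- or no-target dsRNAs, genes unexpressed in JW18 and A1 wells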
In all, the deposit lists about 24,000 reagents; this is a random part of those that have a named target and a result. Over the whole deposit, about 1,210 (5%) are marked active. 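Inactive calls also include excluded dsRNAs with several or no targets, genes unexpressed in JW18, and well A1, regardless of score.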 Unmarked entries are inactive. The numbers tell different reagents against one gene apart. No sequences are given here.

gene,reagent,"Wolbachia per cell robust z, rep 1","Wolbachia per cell robust z, rep 2","Wolbachia per cell robust z, rep 3"
Cpr56F (Cuticular protein 56F),1,-1.73,0.0971,0.416
Cpr56F (Cuticular protein 56F),2,-0.549,0.951,-0.168
Acp26Ab (Accessory gland protein 26Ab),1,-0.892,-0.736,0.735
Acp26Ab (Accessory gland protein 26Ab),2,0.674,0.0187,0.203
UbcE2H (Ubiquitin conjugating enzyme E2H),1,-2.23,-7.28,-6.08
UbcE2H (Ubiquitin conjugating enzyme E2H),2,-0.971,-0.607,-0.839
BomT3 (Bomanin Tailed 3),1,-0.968,-1.04,-6.04
BomT3 (Bomanin Tailed 3),2,0.438,0.962,-0.456
CG1750,1,-4.29 (active),-0.455,-5.01
dib (disembodied),1,0.11,-1.42,-0.583
dib (disembodied),2,0.142,-0.299,0.164
CG13059,1,0.0419,0.14,-2.33
CG15641,1,-0.917,0.822,1.2
Kaz-m1 (Kazal-type protease inhibitor m1),1,0.378,0.523,-0.382
CG14965,1,0.82,-0.0531,-0.463
Mtch,1,-0.0662,-0.717,0.688
CG33767,1,-0.22,-2.06,-1.46
COX7C (Cytochrome c oxidase subunit 7C),1,-3.17 (active),0.271,-3.09

2 consecutive reagents already listed, for reference:
gene,reagent,"Wolbachia per cell robust z, rep 1","Wolbachia per cell robust z, rep 2","Wolbachia per cell robust z, rep 3"
UbcE2H (Ubiquitin conjugating enzyme E2H),1,-2.23,-7.28,-6.08
UbcE2H (Ubiquitin conjugating enzyme E2H),2,-0.971,-0.607,-0.839

The listing continues.
gene,reagent,"Wolbachia per cell robust z, rep 1","Wolbachia per cell robust z, rep 2","Wolbachia per cell robust z, rep 3"
CG32280,1,0.989,0.443,-0.143
Gr36a (Gustatory receptor 36a),1,-1.51,-0.929,-1.24
Gr36a (Gustatory receptor 36a),2,-0.536,0.817,0.84
Ubc2 (Ubiquitin conjugating enzyme 2),1,0.237,-2.32,-0.432
Ubc2 (Ubiquitin conjugating enzyme 2),2,-0.147,0.332,0.322
Ubc2 (Ubiquitin conjugating enzyme 2),3,-1.53 (active),-1.67,-1.23
CG2258,1,0.201,1.35,-3.42
CG2258,2,-1.7,-0.309,-0.296
Cdk5 (Cyclin-dependent kinase 5),1,0.0145,0.944,-8.87
Cdk5 (Cyclin-dependent kinase 5),2,0.0371,0.168,-0.665
w-cup (world cup),1,1.1,-0.809,-3.79
CG34462,1,-0.277,-1.29,-1.11
CG34462,2,-0.438,1.91,1.45
snz (snazarus),1,0.369,0.214,0.732
CG43707,1,-1.74,-0.0136,0.298
CG43707,2,1.28,0.314,0.592
CG43707,3,-1.56,-0.41,-0.447
CG43707,4,0.954,1.84,1.99
ppl (pumpless),1,0.383,0.341,0.123
ppl (pumpless),2,-0.286,-1.49,-0.815
Cdc6 (Cell division cycle 6),1,-0.294,0.516,1.24
alph (alphabet),1,1.74,-0.76,1.37
alph (alphabet),2,-0.286 (active),-1.58,-1.76
Rme-8 (Receptor mediated endocytosis 8),1,-1.36,1.81,-0.00152
CG14160,1,-2.13,-0.113,0.812
CG18180,1,-8.3 (active),-8.98,-0.873
CG18180,2,-0.399,-0.361,-0.543
CG15617,1,-4.47,1.03,-1.74
CG15617,2,-0.91,-0.112,-0.44
